## Screening data, single-dose tests

A: 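Phenotypic screen: M. tuberculosis growth, cholesterol and DPPC medium, 4 days; the read-out is not stated. Compounds at 50 µM. Higher reads as more growth inhibition (inferred: compounds with an IC50 in retests scored well above the rest). About 69,000 compounds were tested under these conditions; 0.54% (about 370) showed 50% or more at least once.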
B: 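Growth of Mycobacterium tuberculosis over 3 days (7H9 medium with glucose and tyloxapol); the read-out is not stated. Tested at 50 µM. Higher reads as more growth inhibition (inferred: compounds with an IC50 in retests scored well above the rest). Of about 69,000 compounds tested this way, about 760 (1.1%) reached 50% or more in at least one test.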

Results are given as percent effect. The record does not define 0% and 100%; most values in the screen are far below 50% and negative numbers occur (in some assays of this library far below -100). Many other results are left out here, so strong results are more common than in the screen. Two or more numbers in one place are separate tests of the same structure; such repeats can differ widely. A dash means the value is not listed here; it may have been measured.

- O=C(c1cc(-c2cccs2)on1)N1CCCCC1Cn1cccn1 (stereo not drawn) : B: 3.955%
- O=C(O)C(F)(F)F.[H][C@@]12CN(CC3CC3)C[C@]1([H])[C@@H](OC)CCN2C(=O)Cc1ccsc1 : A: -2.602%
- CCc1ocnc1C(=O)N1CCOC(CCCC(C)C)C1 (stereo not drawn) : A: 25.37%; B: 28.95% & 26.65%
- COCc1noc(-c2ccc(N(C)Cc3cc(C)no3)nc2)n1 : A: 27.02%; B: 38.16%
- CS(=O)(=O)c1ccc(Cl)c(C(=O)NCCC2=CCCCC2)c1 : A: 1.149%; B: -57.15%
- Cc1nc(CN2CCCC(N(C)CCCc3ccccc3)C2)no1 (stereo not drawn) : B: -25.5% & -7.434%
- CN(Cc1nc(N)c2ccccc2n1)CC1CCCN1c1cccnn1 (stereo not drawn) : B: 10.42%
- Cc1cnc2c(S(=O)(=O)NCC3CC3)cccc2c1 : B: 1.275%
- Cc1ccc(C(=O)CC(SC2CCCCC2)C(=O)O)cc1 (stereo not drawn) : A: 2.097%; B: 6.819% & 14.93%
- O=C(O)[C@@H]1CN(Cc2ccc(-c3cc[nH]n3)s2)C[C@H]1C1CC1 : B: 30.78% & 55.92%
- CN(Cc1nnc(-c2cccs2)o1)Cc1nc2c(s1)CCCC2 : B: 24.88%
- Cc1cccc(NC(=O)C(C)Oc2ccc3c(c2)OCO3)n1 (stereo not drawn) : A: 50.58%; B: 54.91%
- CCc1cnc(C)nc1N1CCN(Cc2ccc(-c3cc[nH]n3)o2)CC1 : B: 0.522%
- Cc1noc(CNc2cc3c(cc2Cl)OCCCO3)n1 : B: -6.32% & 7.401%
- CC(C)CN1Cc2c(C(=O)N(C)C)ncn2-c2ccccc2S1(=O)=O : A: -4.362%
- CC(C)c1noc(CN2CCN(C(=O)c3ccc(F)cc3)CC2)n1 : B: 113.1% & -3.961%
- COC(=O)c1cc(C)nc(N2CCN(Cc3ccn(C(C)C)c3)CC2)n1 : B: -6.708% & -0.5383%
- COCCN(C)S(=O)(=O)c1cc(C)cc(F)c1 : B: 16.09% & 1.599%
- CC(C)CN1CC(C(=O)NCCc2c[nH]cn2)CC1=O (stereo not drawn) : A: 14.01%
- CN(C)C(=O)CN1CCCC1c1nc(N)ncc1-c1ccc(F)cc1 (stereo not drawn) : B: 12.72%
- Cc1cccc(CN2CCC3(CCN(c4ncccn4)C3)C2=O)c1 (stereo not drawn) : B: -15.39%
- O=C1CNc2ncnc(N3CCN(Cc4ccccc4F)CC3)c2N1 : B: 14.5%
- CCN1CC2(CCC1=O)CCN(Cc1cscn1)CC2 : B: -7.781%
- O=C(NCc1ccco1)N1CCN(Cc2ccc3c(c2)CCO3)CC1 : A: 76.73%; B: 82%
- CN1CCCC1c1cccc(Cc2ccccc2F)n1 (stereo not drawn) : B: 53.31%
- CC(C)(C)c1ccc(-n2ncc3c2CCCC3N)cc1 (stereo not drawn) : B: 52.98%
- COc1ccc(C[C@H]2CN(c3nnc(C)s3)CC[C@@H]2OC)cc1.O=C(O)C(F)(F)F : A: 57.7%; B: 55.78%
- CC(C)N1CC(C(=O)N2CCC(Oc3ccccc3Cl)CC2)CC1=O (stereo not drawn) : A: 0.08581% & -8.648%; B: 5.216%
- COc1cc(C(=O)Nc2nc(C)no2)ccc1OC(F)F : B: 21.45%
- COCc1n[nH]c2c1CN(C(=O)c1ccncc1)C2.O=C(O)C(F)(F)F : B: 36.56% & 0.3924%
- COc1cccc(CN2CCc3nc4ccsc4c(=O)n3CC2)c1.Cl : A: -15.37%; B: -33.06%
- COCCCN(C)C(=O)c1nnn(-c2ccccc2Cl)c1C : A: 7.162%; B: 3.637%
- CNc1nc(C)cc(NCc2cc(C)cc3c(C)c(C)[nH]c23)n1 : A: 57.81%; B: 51.15% & 65.28%
- Cc1nccn1C1CCCN(C(=O)c2ccc(N(C)C)nn2)C1 (stereo not drawn) : B: -24.8%
- COCc1noc(-c2ccc(N3CCCC3c3ccc(F)cc3)nc2)n1 (stereo not drawn) : B: -5.276%
- COc1cc(CN2CC[C@@H](N3CCCCCC3)[C@H](O)C2)cc(Cl)c1OC : B: 24.72%
- CCCc1nn(Cc2csc(CC)n2)c(=O)o1 : A: 39.87%; B: 49.13%
- COCCCSc1ccc(NCc2ccc(C)cn2)cc1 : B: 35.96% & 44.38%
- CC(C)(C)c1n[nH]cc1CNCC1CCN(C2CC2)C1.Cl (stereo not drawn) : A: 56.4%; B: 63.53% & 70.38%
- Cc1cc(C(=O)N2CCN(c3nc4c(F)cccc4s3)CC2)no1 : A: -8.468%
- O=C(Cc1cccs1)NC1CCN(c2cccc(F)c2)CC1 : B: 5.533% & 3.271%
- Cc1cccc(OCCNC(=O)C(C)S(=O)(=O)C2CCCC2)c1 (stereo not drawn) : B: -37.57% & -1.505%
- COc1ccccc1C1CC(=O)Nc2nc(N3CCCCC3)sc21 (stereo not drawn) : B: 49.59%

Once more, the final 3:

SMILES,A,B
O=C(Cc1cccs1)NC1CCN(c2cccc(F)c2)CC1,-,5.533 & 3.271
Cc1cccc(OCCNC(=O)C(C)S(=O)(=O)C2CCCC2)c1 (stereo not drawn),-,-37.57 & -1.505
COc1ccccc1C1CC(=O)Nc2nc(N3CCCCC3)sc21 (stereo not drawn),-,49.59

Measurements from “University of Dundee, Small-Polar-MMV Screening Library” (2021), ChEMBL document CHEMBL3988442.